Values of other authors as cited in patent US20210147498A1, “USE OF GRAM-NEGATIVE LYSIN-ANTIMICROBIAL PEPTIDE (AMP) POLYPEPTIDE CONSTRUCTS IN PULMONARY SURFACTANT AND BIOFILMS” (priority 2018, published 2021).

Conditions: D'Lima et al., 2012; cited from earlier work

For O=C(O)c1cn(C2CC2)c2cc(N3CCNCC3)c(F)cc2c1=O [Ciprofloxacin], the “increase of Ciprofloxacin MIC over a 21 day serial passage” value is given as “up to 32 fold”.
